Anti-infective test results gathered from many reports (values: NIAID ChemDB through PubChem).

Shared fields: tests in culture; organism: HIV-1; method: XTT; read-out: EC50

ECn is the concentration giving n% inhibition of infection, replication or growth.

compound | changes | cells | strain or isolate | result
Cc1nn(C)c(C)c1CNC(=O)C1=CN2C[C@H]3OC[C@H](C)N3C(=O)C2C(=O)C1=O | - | CEM-SS | IIIB | 0.0401 µM
CN1N=C(N)c2cn([C@@H]3O[C@H](COP(=O)(O)O)[C@@H](O)[C@H]3O)c3ncnc1c23 | - | - | RF | 0.01 µg/mL
O=C(OC1[C@H](OC(=O)c2cc(O)c(O)c(O)c2)CC(OC(=O)c2cc(O)c(O)c(O)c2)(C(=O)O)C[C@H]1OC(=O)c1cc(O)c(O)c(O)c1)c1cc(O)c(O)c(O)c1 | - | CEM + CEM-SS | RF | ~0.5 µM
Cc1nc2cc(CNC(=O)C3=CN4C[C@H]5OC[C@H](C)N5C(=O)C4C(=O)C3=O)ccc2n1C | - | CEM-SS | IIIB | 0.0389 µM
Nc1nc(Cl)c2ncn([C@@H]3O[C@H](CO)C[C@@H]3F)c2n1 | - | CEM | LAI | >50 µM
CC(=O)O[C@H]1CSSC[C@H]1OC(C)=O | - | CEM + CEM-SS | RF | >200 µM
COC(=O)N[C@H](C(=O)NN(CC[C@@]1(Cc2ccccc2)C(=O)N(C2c3ccccc3C[C@H]2O)C[C@H]1O)Cc1ccc(-c2ccccn2)cc1)C(C)(C)C | - | MT-4 | - | 2.5 µM
O=S1CC(CO)(CO)CS1 | - | CEM + CEM-SS | RF | >200 µM
C[C@H]1CO[C@]23CCC[C@H]2N2C=C(C(=O)NCc4c(F)cc(F)nc4F)C(=O)C(=O)C2CN13 | - | CEM-SS | IIIB | 0.0838 µM
S=C(Cc1ccccn1)NCc1ccccc1Cl | - | CEM | WILD TYPE | >200 µM
O=c1nc(N=CN2CCCC2)ccn1[C@H]1C[C@H](CO)[C@@H](CO)O1 | - | MT-4 | TIBO-resistant | 6.8 µM
O=S(=O)(O)c1cc(N=Nc2cc(S(=O)(=O)O)c3cccnc3c2O)ccc1CCc1ccc(N=Nc2cc(S(=O)(=O)O)c3cccnc3c2O)cc1S(=O)(=O)O | - | CEM | - | 1.7 µM
CCc1nc2sc(C(N)=O)c(N)c2cc1C | - | CEM-SS | RF | >330 µM
Nc1nc2c(ncn2[C@H]2CC[C@@H](CO)O2)c(=O)[nH]1 | - | CEM | LAI | 2 µM
Nc1ncnc2c1ncn2[C@H]1C=C[C@@H](CO)[C@@H]1CO | - | MT-4 | IIIB | 0.2 µg/mL
COC(=O)N[C@H](C(=O)NN(CCC[C@@]1(Cc2ccccc2)C(=O)N(C2c3ccccc3C[C@H]2O)C[C@H]1O)Cc1ccc(Br)cc1)C(C)(C)C | - | MT-4 | - | 2.5 µM
COc1ccc(NC(=O)c2sc3nc(C)cc(C)c3c2N)cc1 | - | CEM-SS | RF | >63 µM
O=c1nc(N=CN2CCCCC2)ccn1[C@H]1C[C@H](CO)[C@@H](CO)O1 | - | MT-4 | IIIB | 12.8 µM
CC[C@H](C)N1C[C@H](COCCOC)n2cc(-c3nnc(Cc4ccc(F)cc4F)s3)c(=O)c(O)c2C1=O | - | CEM | IIIB | 0.016 µM
CCCCCCCCCCCCCCCC(=O)Nc1ccn([C@H]2CC[C@@H](COP(=O)(O)OCC(COP(=O)(O)OC[C@H]3O[C@@H](n4cc(C)c(=O)[nH]c4=O)C[C@@H]3N=[N+]=[N-])OC(=O)CCCCCCCCCCCCCCC)O2)c(=O)n1 | - | CEM | - | 0.0179 µM
CCOP(=O)(OCC)C(NC(=O)c1ccccc1)C(C(=O)N[C@H](CO)Cc1ccccc1)C(=O)N[C@H](CO)Cc1ccccc1 | - | CEM | LAI/3B | 53 µM
NC(=O)CCNC(=O)c1ccccc1SCc1ccc([N+](=O)[O-])o1 | - | CEM | RF | 0.85 µM
CN(C)C=Nc1ccn([C@H]2C[C@H](CO)[C@@H](CO)O2)c(=O)n1 | - | MT-4 | TIBO-resistant | 9.1 µM
O=C(O)C1CC(C(=O)O)SS1 | - | CEM + CEM-SS | RF | >200 µM
C/C=C/C=C/C=NC=Nc1ccn([C@H]2C[C@H](CO)[C@@H](CO)O2)c(=O)n1 | - | MT-4 | TIBO-resistant | 10.8 µM
CC(=O)OCC1(COC(C)=O)CSSC1 | - | CEM + CEM-SS | RF | >200 µM
CC(C)N(C=Nc1ccn([C@H]2C[C@H](CO)[C@@H](CO)O2)c(=O)n1)C(C)C | - | MT-4 | IIIB | 4.5 µM
CCc1cc2c(N)c(C(N)=O)sc2nc1C | - | CEM-SS | RF | >20 µM
COC(=O)N[C@H](C(=O)NN(CCC[C@@]1(Cc2ccccc2)C(=O)N(C2c3ccccc3C[C@H]2O)C[C@H]1O)Cc1ccc(-c2cccnc2)cc1)C(C)(C)C | - | MT-4 | - | 2.5 µM
CC(=O)O[C@H]1CSS(=O)(=O)C[C@H]1OC(C)=O | - | CEM + CEM-SS | RF | >9.2 µM
COC(=O)N[C@H](C(=O)NN(CC[C@@]1(Cc2ccccc2)C(=O)N(C2c3ccccc3C[C@H]2O)C[C@H]1O)Cc1ccc(Br)cc1)C(C)(C)C | - | MT-4 | - | 2.5 µM
CN(C(=O)[C@H](Cc1ccccc1)NC(=O)CNC(=O)c1ccccc1)c1ccc(Cl)cc1 | - | TZM-gfp | NL4-3 | 0.88 µM
O=C(NCc1c(F)cc(F)nc1F)C1=CN2C[C@H]3O[C@@H]4CC[C@@H](C4)N3C(=O)C2C(=O)C1=O | - | CEM-SS | IIIB | 0.118 µM
O=c1nc(N=CN2CCOCC2)ccn1[C@H]1C[C@H](CO)[C@@H](CO)O1 | - | MT-4 | IIIB | 3.2 µM
C[C@@H]1CO[C@@]23CCC[C@@H]2N2C=C(C(=O)NCc4c(F)cncc4F)C(=O)C(=O)C2C(=O)N13 | - | CEM-SS | IIIB | 0.0736 µM
CC(=O)OCC1(COC(C)=O)CSS(=O)C1 | - | CEM + CEM-SS | RF | >143 µM
C[C@@H]1CCO[C@H]2CN3C=C(C(=O)NCc4c(F)cc(F)nc4F)C(=O)C(=O)C3C(=O)N12 | - | CEM-SS | IIIB | 0.145 µM
Cc1[nH]c2ccccc2c1CCC(=O)N[C@@H](Cc1ccccc1)C(=O)N(C)c1ccccc1 | - | TZM-gfp | NL4-3 | 0.61 µM
C[C@H]1CO[C@@H]2CN3C=C(C(=O)NCc4ccc5[nH]c(=O)[nH]c5c4)C(=O)C(=O)C3C(=O)N12 | - | CEM-SS | IIIB | 0.0174 µM
CCCc1cc(=O)oc2c3c(c4c(c12)OC(C)(C)CC4)O[C@@H](C)[C@H](C)[C@@H]3O | RT-A98G V108I | CEM + CEM-SS | TIBO R82150-resistant (RT A98G V108I) | 5.1 µM
O=C(NCc1ccc(F)nc1F)C1=CN2C[C@H]3O[C@@H]4CC[C@@H](C4)N3C(=O)C2C(=O)C1=O | - | CEM-SS | IIIB | 0.0562 µM
NC(=NCCCCCCN=C(N)/N=C(\N)N1CCN(c2cc3c(cc2F)c(=O)c(C(=O)O)cn3C2CC2)CC1)/N=C(\N)N1CCN(c2cc3c(cc2F)c(=O)c(C(=O)O)cn3C2CC2)CC1 | - | PBMC | IIIB | 2.5 µg/mL

3 of the rows above, restated:

{"compound": "O=C(O)C1CC(C(=O)O)SS1", "cells": "CEM + CEM-SS", "strain or isolate": "RF", "result": ">200 µM"}
{"compound": "C[C@@H]1CCO[C@H]2CN3C=C(C(=O)NCc4c(F)cc(F)nc4F)C(=O)C(=O)C3C(=O)N12", "cells": "CEM-SS", "strain or isolate": "IIIB", "result": "0.145 µM"}
{"compound": "Cc1[nH]c2ccccc2c1CCC(=O)N[C@@H](Cc1ccccc1)C(=O)N(C)c1ccccc1", "cells": "TZM-gfp", "strain or isolate": "NL4-3", "result": "0.61 µM"}

Blank or dashed fields: not listed here. Neighbouring rows are from separate reports.